Measured values from several laboratories, pooled; numbers as filed in NIAID ChemDB.

Shared fields: whole-cell or culture tests; organism: Candida albicans; endpoint: MIC100

A number after MIC or MFC names an inhibition level or a share of isolates. Conditions beyond the fields shown may differ between rows. An empty or dashed field is not shown.

structure	strain or isolate	method	result
CC1CC(C)CN(c2nc3ccc4oc(=O)ccc4c3s2)C1	MTCC 183		50 µg/mL
CN(C)c1ccc2[nH]c3cc4c(=O)[nH]n(-c5ccccc5)c(=O)c4cc3c2c1	Clinical isolates	agar	>512 µg/mL
Nc1nc(N)c2c(=O)c3ccccc3oc2n1	MTCC 227	broth dilution	500 µg/mL
O=c1ccc2c(ccc3nc(N4CCN(c5cccc(C(F)(F)F)c5)CC4)sc32)o1	MTCC 183		50 µg/mL
COc1ccc(-c2n[nH]c(COc3ncnc4ccccc34)n2)cc1OC	MTCC 227		12.5 µg/mL
CCCCCCCCCn1cc[n+](COCCCCOC[n+]2ccn(CCCCCCCCC)c2)c1	ATCC 90028	agar diffusion	9 µM
Cc1ccc2c(=O)c3c(N)[nH]c(=S)nc3oc2c1	MTCC 227	broth dilution	250 µg/mL
Cc1ccc(-c2c3c(N)c4c(nc3nc3c2c(C)nn3-c2ccccc2)CCC4)cc1	CCC 127	broth dilution / absorbance	62.5 µg/mL
C[C@H]1[C@H](O)[C@@H](C)/C=C/C=C/C=C/C=C/C=C/C=C/C=C/[C@H](O[C@@H]2O[C@H](C)[C@@H](O)[C@H](N)[C@@H]2O)C[C@@H]2O[C@](O)(C[C@@H](O)C[C@@H](O)CC[C@H](O)[C@@H](O)C[C@@H](O)CC(=O)O[C@H]1C)C[C@H](O)[C@H]2C(=O)O	n. 1s	broth dilution	2 µM
Cc1cc2[nH]c3cc4c(=O)[nH]n(-c5ccccc5)c(=O)c4cc3c2cc1C	Clinical isolates	agar	64 µg/mL
CCCCCCCCCCCCn1cc[n+](COCCCCOC[n+]2ccn(CCCCCCCCCCCC)c2)c1	ATCC 90028	agar diffusion	30 µM
C[C@H]1[C@H](O)[C@@H](C)/C=C/C=C/C=C/C=C/C=C/C=C/C=C/[C@H](O[C@@H]2O[C@H](C)[C@@H](O)[C@H](N)[C@@H]2O)C[C@@H]2O[C@](O)(C[C@@H](O)C[C@@H](O)CC[C@H](O)[C@@H](O)C[C@@H](O)CC(=O)O[C@H]1C)C[C@H](O)[C@H]2C(=O)O	CCC 125	broth dilution / absorbance	0.78 µg/mL
COc1ccc(CCC(=O)Nc2ccc(-c3nc4ccccc4s3)cc2)cc1	ATCC 10231	broth dilution	25 µg/mL
C[C@H]1[C@H](O)[C@@H](C)/C=C/C=C/C=C/C=C/C=C/C=C/C=C/[C@H](O[C@@H]2O[C@H](C)[C@@H](O)[C@H](N)[C@@H]2O)C[C@@H]2O[C@](O)(C[C@@H](O)C[C@@H](O)CC[C@H](O)[C@@H](O)C[C@@H](O)CC(=O)O[C@H]1C)C[C@H](O)[C@H]2C(=O)O	ATCC 10231	broth dilution	<0.3 µg/mL
CCCCCCn1cc[n+](COCCCCCCOC[n+]2ccn(CCCCCC)c2)c1	ATCC 90028	agar diffusion	38 µM
Cn1c(=O)ccc2c3sc(N4CCN(c5ccc(F)cc5)CC4)nc3ccc21	MTCC 183		50 µg/mL
COc1ccc(-c2n[nH]c(COc3nc(C)nc4ccccc34)n2)cc1OC	MTCC 227		6.25 µg/mL
Nc1[nH]c(=O)nc2oc3ccc([N+](=O)[O-])cc3c(=O)c12	MTCC 227	broth dilution	500 µg/mL
c1ccc(-c2n[nH]c(COc3ncnc4ccccc34)n2)cc1	MTCC 227		12.5 µg/mL
O=c1[nH]n(-c2ccccc2)c(=O)c2cc3c(cc12)[nH]c1ccc(N2CCNCC2)cc13	Clinical isolates	agar	512 µg/mL
Cn1c(=O)ccc2c3sc(N4CCN(c5cccc(C(F)(F)F)c5)CC4)nc3ccc21	MTCC 183		62.5 µg/mL
O=C(Cc1ccc(Br)cc1)Nc1ccc(Cc2nc3ccccc3s2)cc1	ATCC 10231	broth dilution	25 µg/mL
O=c1ccc2c(ccc3nc(N4CCN(c5ccccc5F)CC4)sc32)o1	MTCC 183		50 µg/mL
Oc1ccc(-c2n[nH]c(COc3ncnc4ccccc34)n2)cc1	MTCC 227		12.5 µg/mL
CCc1ccc(C(=O)Nc2ccc(Cc3nc4ccccc4s3)cc2)cc1	ATCC 10231	broth dilution	25 µg/mL
Cc1ccc(-c2c3c(N)c4c(nc3nc3c2c(C)nn3-c2ccccc2)CCCC4)cc1	CCC 125	broth dilution / absorbance	31.2 µg/mL
CC(C)N1CCN(c2nc3ccc4c(ccc(=O)n4C)c3s2)CC1	MTCC 183		62.5 µg/mL
CCCCCCCCCCCCCCn1cc[n+](COCCCCOC[n+]2ccn(CCCCCCCCCCCCCC)c2)c1	ATCC 90028	agar diffusion	7 µM
O=c1[nH]n(-c2ccccc2)c(=O)c2cc3c(cc12)[nH]c1ccc([N+](=O)[O-])cc13	Clinical isolates	agar	32 µg/mL
Cn1c(=O)ccc2c3sc(N4CCN(c5ccccc5F)CC4)nc3ccc21	MTCC 183		50 µg/mL
Nc1[nH]c(=S)nc2oc3c(Br)cc(Br)cc3c(=O)c12	MTCC 227	broth dilution	500 µg/mL
CC(=O)N1CCN(c2nc3ccc4c(ccc(=O)n4C)c3s2)CC1	MTCC 183		62.5 µg/mL
O=C(Cc1ccc([N+](=O)[O-])cc1)Nc1ccc(Cc2nc3ccccc3s2)cc1	ATCC 10231	broth dilution	25 µg/mL

Again, the opening 2 rows:

{"structure": "CC1CC(C)CN(c2nc3ccc4oc(=O)ccc4c3s2)C1", "strain or isolate": "MTCC 183", "result": "50 µg/mL"}
{"structure": "CN(C)c1ccc2[nH]c3cc4c(=O)[nH]n(-c5ccccc5)c(=O)c4cc3c2c1", "strain or isolate": "Clinical isolates", "method": "agar", "result": ">512 µg/mL"}